{"source": "PubChem BioAssay AID504761 (Drosophila RNAi Screening Center, 2011)", "screen": "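Genome-wide fly cell screen for genes dengue virus requires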 (primary screen)", "cell system": "D.Mel-2 cells from Drosophila", "knock-down reagent": "long dsRNA against Drosophila genes", "challenge": "infection with dengue virus type 2; dose and infection time not stated", "measurement": "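Cells stained for dengue envelope protein and imaged; percent of infected cells per well on duplicate plates, ranked by infection, with stained nuclei counted for cell number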", "scale": "infection score: higher = more virus-infected cells; cell count: higher = more cells in the well", "call rule": "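Low infection ranks in the two replicates (chance level up to 0.065) followed by a retest with a 1.5-fold or larger significant decrease, p below 0.05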", "meaning of the calls": "active = confirmed: knock-down lowers infection; inactive = not picked or not confirmed", "note": "The screen tested about 22,000 reagents; below is a random part of those that have a named target and a result. Over the whole deposit, 116 (0.52%) are marked active. 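Calls depend on retest data that are not deposited; infection was ranked per plate without normalising between plates; the unit of the infection score is not given.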 The raw values are shown without normalisation. Not all columns of the deposit are shown. Reagent sequences are not shown. The record does not give: the amount of reagent, the time to read-out."}
{"gene": "CG9799 (GeneID 41647)", "amplicon": "DRSC16567", "infection score, replicate 1": 13.2, "cell count, replicate 1": 5730, "Call": "inactive"}
{"gene": "tRNA:Leu-CAA-2-3 (GeneID 3772601)", "amplicon": "DRSC13633", "infection score, replicate 1": 4.55, "cell count, replicate 1": 5720, "Call": "active"}
{"gene": "DCP2 (GeneID 39722)", "amplicon": "DRSC10597", "infection score, replicate 1": 7.12, "cell count, replicate 1": 5691, "Call": "inactive"}
{"gene": "BuGZ (GeneID 35004)", "amplicon": "DRSC02642", "infection score, replicate 1": 17.5, "cell count, replicate 1": 5324, "Call": "inactive"}
{"gene": "BuGZ (GeneID 35004)", "amplicon": "DRSC02643", "infection score, replicate 1": 3.22, "cell count, replicate 1": 6020, "Call": "inactive"}
{"gene": "BuGZ (GeneID 35004)", "amplicon": "DRSC25285", "infection score, replicate 1": 7.9, "cell count, replicate 1": 5174, "Call": "inactive"}
{"gene": "CG9281 (GeneID 32508)", "amplicon": "DRSC20179", "infection score, replicate 1": 0.88, "cell count, replicate 1": 6917, "Call": "inactive"}
{"gene": "CG9281 (GeneID 32508)", "amplicon": "DRSC24522", "infection score, replicate 1": 9.84, "cell count, replicate 1": 6789, "Call": "inactive"}
{"gene": "CG42674 (GeneID 40205)", "amplicon": "DRSC10066", "infection score, replicate 1": 1.6, "cell count, replicate 1": 7080, "Call": "inactive"}
{"gene": "CG42674 (GeneID 40205)", "amplicon": "DRSC10067", "infection score, replicate 1": 8.86, "cell count, replicate 1": 6312, "Call": "inactive"}
{"gene": "CG42674 (GeneID 40205)", "amplicon": "DRSC10811", "infection score, replicate 1": 2.49, "cell count, replicate 1": 6419, "Call": "inactive"}
{"gene": "CG42674 (GeneID 40205)", "amplicon": "DRSC25036", "infection score, replicate 1": 3.33, "cell count, replicate 1": 6856, "Call": "inactive"}
{"gene": "CG42674 (GeneID 40205)", "amplicon": "DRSC29701", "infection score, replicate 1": 8.49, "cell count, replicate 1": 6528, "Call": "inactive"}
{"gene": "CG11458 (GeneID 50110)", "amplicon": "DRSC23399", "infection score, replicate 1": 3.26, "cell count, replicate 1": 6720, "Call": "inactive"}
{"gene": "Drep3 (GeneID 36292)", "amplicon": "DRSC07529", "infection score, replicate 1": 2.11, "cell count, replicate 1": 6589, "Call": "inactive"}
{"gene": "Drep3 (GeneID 36292)", "amplicon": "DRSC22344", "infection score, replicate 1": 4.49, "cell count, replicate 1": 6497, "Call": "inactive"}
{"gene": "Alr (GeneID 32991)", "amplicon": "DRSC19469", "infection score, replicate 1": 5.13, "cell count, replicate 1": 4989, "Call": "inactive"}
{"gene": "PDCD-5 (GeneID 39776)", "amplicon": "DRSC09955", "infection score, replicate 1": 3.88, "cell count, replicate 1": 5664, "Call": "inactive"}
{"gene": "eRF3 (GeneID 34658)", "amplicon": "DRSC03322", "infection score, replicate 1": 5.06, "cell count, replicate 1": 3281, "Call": "inactive"}
{"gene": "CG5565 (GeneID 33323)", "amplicon": "DRSC00690", "infection score, replicate 1": 3.63, "cell count, replicate 1": 6275, "Call": "inactive"}
{"gene": "se (GeneID 38973)", "amplicon": "DRSC10713", "infection score, replicate 1": 1.75, "cell count, replicate 1": 6052, "Call": "inactive"}
